# System: delta variant of the SARS-COV2 virus (B.1.617.2)
# Assay: SARS-CoV-2 viral genome replication in A549-ACE2 cells pre-treated with IFNb (FIG. 31)
# Format: cell-based
substance,measurement,value
IFNb: type I interferon beta used to treat the cell lines,"antiviral response (viral genome replication, RT-qPCR)",stronger antiviral response

# Reference: US20250297262A1, “REGULATION OF TYPE I IFN SIGNALING BY TARGETING A DECOY RECEPTOR” (THE REGENTS OF THE UNIVERSITY OF COLORADO A BODY CORPORATE, priority 2022, published 2025)
